Values from PubChem BioAssay AID1259414 (Drosophila RNAi Screening Center, 2018)

- Purpose: 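Host factors increasing or decreasing Wolbachia levels in cultured fly cells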 (primary screen)
- System: Drosophila JW18 cells infected with Wolbachia
- Knock-down reagent: long dsRNA against Drosophila genes, 0.25 µg dsRNA per well of a 384-well plate
- Timing: 5 days
- Treatment: cells persistently infected with Wolbachia before knock-down; no added drug
- Read-out: 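Automated imaging of bacterial rRNA staining divided by host cell count, reported as plate-normalised robust z-score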
- Scale: Wolbachia per cell robust z: higher = more Wolbachia per host cell than the plate typical
- Rule for the call: 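Hit when robust z is 1.5 or more, or -1.5 or less, in at least two of three replicates; excludes dsRNAs with several or no targets, genes not expressed in JW18 and well A1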
The deposit covers about 24,000 reagents; this is a random part of those with a known target gene and a result. Over the whole deposit, about 1,210 (5%) are marked active. 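Inactive calls also include excluded dsRNAs with several or no targets, genes unexpressed in JW18, and well A1, regardless of score.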 Names joined by + are all predicted targets of the reagent.

| target gene | DRSC id | Wolbachia per cell robust z, rep 1 | Wolbachia per cell robust z, rep 2 | Wolbachia per cell robust z, rep 3 | activity call |
| --- | --- | --- | --- | --- | --- |
| CG18249 | DRSC15318 | -0.113 | -0.00891 | 0.245 | inactive |
| CG3494 | DRSC04375 | -1.27 | 0.212 | 0.507 | inactive |
| CHOp24 | DRSC18310 | -0.605 | 1.72 | 1.73 | active |
| CG9920 | DRSC16578 | -0.393 | -0.945 | -0.351 | inactive |
| Pgant5 (Polypeptide N-Acetylgalactosaminyltransferase 5) | DRSC03149 | -1.53 | -0.017 | 0.69 | inactive |
| CG31183 | DRSC14403 | 0.943 | 0.564 | 1.43 | inactive |
| CG31183 | DRSC15554 | 0.0132 | -0.635 | 0.000324 | inactive |
| Aldh (Aldehyde dehydrogenase) | DRSC02717 | -0.532 | -0.0652 | -0.44 | inactive |
| Bro | DRSC08149 | 0.482 | -0.287 | -2.69 | inactive |
| blot (bloated tubules) | DRSC09485 | 0.947 | 0.354 | 0.399 | inactive |
| blot (bloated tubules) | DRSC11328 | 0.499 | 0.751 | 0.47 | inactive |
| blot (bloated tubules) | DRSC26157 | 2.72 | 0.017 | -0.353 | inactive |
| Npc1b (Niemann-Pick type C-1b) | DRSC20488 | -2.03 | -1.33 | -2.15 | inactive |
| Pmi + PGRP-LD | DRSC10512 | -0.746 | 0.467 | -1.38 | inactive |
| Pmi + PGRP-LD | DRSC10513 | 0.424 | -0.48 | 0.672 | inactive |
| CG13659 | DRSC14660 | -3.66 | 0.822 | 0.0969 | inactive |
| CG13659 | DRSC29383 | 0.168 | -0.745 | 0.168 | inactive |
| twin | DRSC15259 | 0.229 | 1.95 | -0.947 | inactive |
| twin | DRSC15831 | -5.46 | -0.744 | 1.02 | inactive |
| twin | DRSC21363 | 0.438 | 0.722 | -1.47 | inactive |
| twin | DRSC29620 | 0.146 | 0.312 | -0.896 | inactive |
| CG13557 | DRSC04195 | -0.903 | -1.57 | -1.13 | inactive |
| Sod1 (Superoxide dismutase 1) | DRSC11286 | 0.0193 | 0.658 | 0.494 | inactive |
| Sod1 (Superoxide dismutase 1) | DRSC40766 | 0.824 | 1.2 | 0.237 | inactive |
| yl (yolkless) | DRSC20387 | -0.243 | 0.302 | 0.381 | inactive |
| yl (yolkless) | DRSC29027 | -0.42 | 0.385 | -0.0626 | inactive |
| Pxn (Peroxidasin) | DRSC08685 | 1.45 | -1.72 | 0.905 | inactive |
| Pxn (Peroxidasin) | DRSC27895 | -1.88 | -0.161 | 0.902 | inactive |
| CG17122 | DRSC10245 | -0.959 | -3.19 | -0.934 | inactive |
| CG17122 | DRSC28648 | 0.475 | 0.819 | 0.873 | inactive |
| CG14190 | DRSC19545 | 0.185 | -1.37 | -0.204 | inactive |
| CG14190 | DRSC27410 | 1.09 | 0.353 | 0.689 | inactive |
| CG10339 | DRSC04065 | -0.823 | 0.734 | -1.7 | inactive |
| Lim3 | DRSC23034 | 0.0422 | 0.498 | -0.707 | inactive |
| Lim3 | DRSC28555 | -0.205 | 0.672 | 1.31 | inactive |
| tn (thin) | DRSC05768 | -1.34 | 0.507 | 0.663 | inactive |
| tn (thin) | DRSC06532 | -0.061 | -4.11 | -0.205 | inactive |
| tn (thin) | DRSC27711 | -0.512 | 0.226 | 0.196 | inactive |
| CG15725 | DRSC19691 | -0.324 | -1.32 | -0.0587 | inactive |
| Indy-2 + CG33934 | DRSC15685 | 0.682 | 1 | 0.487 | inactive |
| Indy-2 + CG33934 | DRSC15686 | -0.115 | 0.562 | -0.539 | inactive |
| CG12592 + sle | DRSC21387 | -0.499 | -0.519 | 0.633 | inactive |
| CG12592 + sle | DRSC27126 | 0.81 | 0.531 | 1.82 | inactive |
| Gyc89Db (Guanylyl cyclase at 89Db) | DRSC15009 | 0.773 | 0.264 | 0.45 | inactive |
| Or92a (Odorant receptor 92a) | DRSC16771 | -4.89 | -0.399 | -0.63 | inactive |
| CG12116 | DRSC17812 | -0.0391 | -1.71 | -0.421 | inactive |
| Rcd5 (Reduction in Cnn dots 5) | DRSC08180 | 0.934 | -0.438 | -1.36 | inactive |
| Rcd5 (Reduction in Cnn dots 5) | DRSC27788 | 0.379 | 0.519 | 0.904 | inactive |
| p130CAS | DRSC07862 | -0.921 | 1.37 | 0.694 | inactive |
| p130CAS | DRSC08257 | 0.489 | 0.145 | -0.237 | inactive |
| p130CAS | DRSC26616 | 1.35 | 2.04 | 1.24 | inactive |
| aop (anterior open) | DRSC22999 | 0.136 | -2.3 | -1.77 | active |
| aop (anterior open) | DRSC25805 | 0.147 | 0.435 | 1.3 | inactive |
| aop (anterior open) | DRSC39162 | 0.277 | -0.0519 | 0.988 | inactive |
| CG1986 | DRSC18197 | 0.698 | -0.164 | 0.715 | inactive |
| CG1986 | DRSC27916 | 0.698 | 1.16 | -0.229 | inactive |
| CG13026 | DRSC09906 | -1.32 | -0.343 | -0.0171 | inactive |
| Ror | DRSC03414 | 0.661 | 1.39 | -2.35 | inactive |
| shf (shifted) | DRSC18283 | 0.314 | -1.36 | -0.355 | inactive |
| shf (shifted) | DRSC24224 | -0.0669 | 2.41 | -0.25 | inactive |
| shf (shifted) | DRSC38947 | 0.963 | 1.25 | 1.55 | inactive |
| CG43736 | DRSC18370 | -0.735 | -7.12 | -4.24 | active |
| CG43736 | DRSC18371 | 0.0172 | 0.329 | -0.433 | inactive |
| CG43736 | DRSC27351 | -0.663 | -0.176 | 0.376 | inactive |
| CG43736 | DRSC39100 | -0.457 | -2.51 | 0.021 | inactive |
| CG4483 | DRSC10426 | 0.196 | -1.27 | 0.129 | inactive |
| SP (Sex Peptide) | DRSC09664 | 0.63 | -0.206 | 0.947 | inactive |
| CG2694 | DRSC18470 | -0.271 | 0.305 | -7.52 | inactive |

Reprinted from the entries so far (9 entries):
| target gene | DRSC id | Wolbachia per cell robust z, rep 1 | Wolbachia per cell robust z, rep 2 | Wolbachia per cell robust z, rep 3 | activity call |
| --- | --- | --- | --- | --- | --- |
| CG31183 | DRSC14403 | 0.943 | 0.564 | 1.43 | inactive |
| CG31183 | DRSC15554 | 0.0132 | -0.635 | 0.000324 | inactive |
| Aldh (Aldehyde dehydrogenase) | DRSC02717 | -0.532 | -0.0652 | -0.44 | inactive |
| Bro | DRSC08149 | 0.482 | -0.287 | -2.69 | inactive |
| blot (bloated tubules) | DRSC09485 | 0.947 | 0.354 | 0.399 | inactive |
| blot (bloated tubules) | DRSC11328 | 0.499 | 0.751 | 0.47 | inactive |
| blot (bloated tubules) | DRSC26157 | 2.72 | 0.017 | -0.353 | inactive |
| Npc1b (Niemann-Pick type C-1b) | DRSC20488 | -2.03 | -1.33 | -2.15 | inactive |
| Pmi + PGRP-LD | DRSC10512 | -0.746 | 0.467 | -1.38 | inactive |
